Results of unrelated studies side by side (data: NIAID ChemDB).

All rows: growth or infection tests; species: HIV-1; read by: syncytia; measure: EC50

Rows are shuffled and stem from different studies.

| SMILES | strain | conditions | cells | changes | result |
|---|---|---|---|---|---|
| Cc1cn([C@H]2C=C[C@@H](CO)O2)c(=O)[nH]c1=O | IIIB | 4 d | CEM |  | 0.8 µM |
| OCCN1CCN(CC/C=C2/c3ccccc3Sc3ccc(C(F)(F)F)cc32)CC1 | IIIB |  | MOLT-3 |  | >2 µg/mL |
| Cc1cn([C@@H]2O[C@H](CO[Si](C)(C)C(C)(C)C)C3(OS(=O)(=O)C=C3N)[C@H]2O[Si](C)(C)C(C)(C)C)c(=O)n(C)c1=O | IIIB |  | CEM | RT-E138K | >80 µM |
| NC(=O)c1nn([C@@H]2O[C@H](CO)[C@@H](O)[C@H]2O)cc1I | IIIB |  | C8166 |  | <20 µM |
| CN(C)c1ncnc2c1ncn2[C@@H]1O[C@H](CO[Si](C)(C)C(C)(C)C)C2(OS(=O)(=O)C=C2N)[C@H]1O[Si](C)(C)C(C)(C)C | IIIB |  | C8166 |  | 0.8 µg/mL |
| OC[C@@H]1[C@@H](O)[C@H](O)[C@@H](O)CN1C/C=C/c1ccccc1 |  |  | MOLT-4 |  | <5 µg/mL |
| Cn1c2ccccc2c2c3c(c4c5ccccc5n(CCC#N)c4c21)CNC3=O |  |  | U1/HIV-1(PMA) + U1 |  | 0.04 µM |
| COC(=O)[C@H](C)NP(=O)(OC[C@@H]1O[C@H](n2ccc(N)nc2=O)CS1)Oc1ccccc1 | IIIB |  | CEM |  | 1.1 µM |
| C[C@@]12CCC[C@@](C)(C(=O)O)C1CC[C@@]13C[C@H](CCC12)[C@](C)(O)C3 | MC99 (Tat/Rev defective) |  | 1A2 |  | 66.5 µg/mL |
| O=C(O[C@H]1CN2CC[C@H](O)[C@@H]2[C@@H](O)[C@@H]1O)c1ccco1 | GB8 |  | JM |  | 1 µg/mL |
| COc1ccc(OC[C@@H]2CNCC[C@H]2c2ccccc2)cc1 | IIIB |  | MOLT-3 |  | >4 µg/mL |
| O=c1[nH]c(Br)nc2c1ncn2[C@H]1CC[C@@H](CO)O1 | LAV |  | MT-2 |  | >20 µM |
| Cc1cccc2ccn(-c3ccccc3[N+](=O)[O-])c12 | IIIB |  | C8166 |  | 37.76 µg/mL |
| NC(=O)c1nn([C@@H]2O[C@H](CO)[C@@H](O)[C@H]2O)cc1[N+](=O)[O-] | IIIB |  | C8166 |  | <25.4 µM |
| CC(C)=CCN1Cc2cc(Cl)cc3[nH]c(=S)n(c23)C[C@@H]1C | IIIB |  | CEM |  | 0.023 µg/mL |
| N#CCN1C(=O)N(Cc2ccccc2)S(=O)(=O)c2cscc21 | ADP/141 |  | MT-4 | RT-D67N K70R T215F K219Q | 1.2 µM |
| Nc1ccn([C@H]2CC[C@@H](CO)O2)c(=O)n1 | IIIB |  | CEM | RT-E138K | 0.03 µM |
| O=C1N(Cc2ccccc2)c2cscc2S(=O)(=O)N1Cc1ccccc1 | IIIB |  | MT-4 |  | 2.6 µM |
| Cc1cn([C@@H]2O[C@H](CO[Si](C)(C)C(C)(C)C)[C@@]3(OS(=O)(=O)C=C3N)[C@H]2O[Si](C)(C)C(C)(C)C)c(=O)[nH]c1=O | IIIB |  | CEM | RT-E138K | 3.1 µM |
| Cc1cn([C@H]2C[C@H](N=[N+]=[N-])[C@@H](CO)O2)c(=O)[nH]c1=O | IIIB |  | C8166 |  | 0.13 µg/mL |
| CC1CNCCN1S(=O)(=O)c1cccc2cnccc12 |  |  | U1/HIV-1(PMA) + U1 |  | 1.6 µM |
| COc1ccc(OC[C@H]2CN(C)CC[C@@H]2c2ccccc2)cc1 | IIIB |  | MOLT-3 |  | >4 µg/mL |
| Nc1ccn([C@H]2CC[C@@H](CO)O2)c(=O)n1 | IIIB TIBO R82913 STR-1 (RT L100I Y181C) |  | CEM | RT-L100I Y181C | 0.04 µM |
| Cn1cnc2ncn([C@@H]3O[C@H](CO[Si](C)(C)C(C)(C)C)C4(OS(=O)(=O)C=C4N)[C@H]3O[Si](C)(C)C(C)(C)C)c2c1=O | IIIB |  | C8166 |  | 0.1 µg/mL |
| C=C(CC[C@@H](C)[C@H]1CC[C@@]2(C)C3CCC4C(C)(C)[C@@H](OC(=O)CCCCCCCCCCCCCCC)CC[C@@]45C[C@@]35CC[C@]12C)C(C)(C)O | MC99 (Tat/Rev defective) |  | 1A2 |  | 108.7 µg/mL |
| O=[N+]([O-])c1ccc(-n2ccc3ccccc32)cc1 | IIIB |  | C8166 |  | 35.82 µg/mL |
| CC(C)(C)[Si](C)(C)OC[C@H]1O[C@@H](n2cnc3c(N)ncnc32)[C@H](O[Si](C)(C)C(C)(C)C)C12OS(=O)(=O)C=C2N | IIIB |  | CEM |  | 0.08 µM |
| COc1cc(O)ccc1O[C@@H]1O[C@H](CO)[C@@H](O)[C@H](O)[C@H]1O | IIIB |  | C8166 |  | 55.08 µg/mL |
| CNCCC=C1c2ccccc2CCc2ccccc21 | IIIB |  | MOLT-3 |  | >5 µg/mL |
| O=c1[nH]cnc2c1ncn2[C@H]1CC[C@@H](CO)O1 | IIIB nevirapine-resistant (RT Y181C) |  | CEM | RT-Y181C | 25 µM |
| Cn1c2ccccc2c2c3c(c4c5ccccc5n(CC(F)F)c4c21)CNC3=O |  |  | U1/HIV-1(TNFalpha) + U1 |  | 0.02 µM |
| CC(C)(C)[Si](C)(C)OC[C@H]1O[C@@H](n2cnc3nc[nH]c(=O)c32)[C@H](O[Si](C)(C)C(C)(C)C)C12OS(=O)(=O)C=C2N | IIIB |  | C8166 |  | 0.4 µg/mL |
| CN1C(=O)N(Cc2ccccc2)S(=O)(=O)c2cscc21 |  |  | CEM | RT-Y188H | >324 µM |
| c1cc(CN2CCNCCNCCNCC2)cc(CN2CCNCCNCCNCC2)c1 | SF-2H |  | MOLT-4 |  | 0.15 µM |
| CN1CC[C@@H](c2ccccc2)[C@H](COc2ccc3c(c2)OCCO3)C1 | IIIB |  | MOLT-3 |  | >0.8 µg/mL |
| Cc1cc(O)c2c(c1)C(=O)c1cc(O)cc(O[C@@H]3O[C@H](CO)[C@@H](O)[C@H](O)[C@H]3O)c1C2=O | IIIB |  | C8166 |  | 11.29 µg/mL |
| Nc1ncnc2c1ncn2CCOCP(=O)(O)O | IIIB |  | CEM | RT-E138K | 7 µM |
| O=c1[nH]c(F)nc2c1ncn2[C@H]1CC[C@@H](CO)O1 | LAV |  | MT-2 |  | >20 µM |
| CCN1C(=O)N(Cc2ccccc2)S(=O)(=O)c2cscc21 | IIIB |  | MT-4 |  | 8.7 µM |
| Cc1cn([C@H]2C[C@H](N=[N+]=[N-])[C@@H](CO)O2)c(=O)[nH]c1=O | IIIB |  | C8166 |  | 0.007 µg/mL |
| C=CCc1cc2c(cc1OCC=C(C)C)OCO2 | IIIB |  | C8166 |  | 49.9 µM |
| Cc1ccnc2c1NC(=O)c1cccnc1N2C1CC1 | IIIB TIBO R82913 STR-B02 (RT L100I E138K) |  | CEM | RT-L100I E138K | 0.02 µM |
| Nc1ncnc2c1ncn2CC(CF)OCP(=O)(O)O | IIIB |  | CEM |  | 3 µM |
| Cc1cn([C@H]2C[C@H](N=[N+]=[N-])[C@@H](CO)O2)c(=O)[nH]c1=O | 0650 |  | MOLT-4 / MOLT-4 (HIV-1) + MOLT-4 |  | >50 µg/mL |
| C=CCC1=C[C@@]2(CC=C(C)C)OCOC2=CC1=O | IIIB |  | C8166 |  | 16 µM |
| CCCCC[C@H](O)/C=C/[C@H]1[C@H](O)CC(=O)[C@@H]1C/C=C\CCCC(=O)O |  |  |  |  | >40 µM |
| CC(=O)c1ccc(C)cc1NC(C(N)=O)c1c(Cl)cccc1Cl | IIIB |  | CEM |  | 0.005 µg/mL |
| COc1cc(O[C@@H]2O[C@H](CO)[C@@H](O)[C@H](O)[C@H]2O)ccc1O | IIIB |  | C8166 |  | >200 µg/mL |
| CC1=C(C(=O)Nc2ccc(Cl)c(C(=O)OC(C)C)c2)SCCO1 | IIIB |  | CEM |  | 0.042 µM |
| C=CCc1cc2c(c(CC=C(C)C)c1O)OCO2 | IIIB |  | C8166 |  | 62.2 µM |
| Cc1cn([C@H]2C=C[C@@H](CO)O2)c(=O)[nH]c1=O | IIIB |  | CEM/dCK- + CEM |  | 0.17 µM |
| C=C1[C@H]2CCC3C(CCC4[C@@]3(C)CCC[C@@]4(C)C(=O)O)(C2)[C@@H]1OC(C)=O | MC99 (Tat/Rev defective) |  | 1A2 |  | 30.8 µg/mL |
| Nc1nc(Br)nc2c1ncn2[C@H]1CC[C@@H](CO)O1 | LAV |  | MT-2 |  | 10 µM |
| CC[C@@]1(O)C(=O)OCc2c1cc1n(c2=O)Cc2cc3cc(O)ccc3nc2-1 | IIIB |  | C8166 |  | 0.0334 µg/mL |
| Nc1ncnc2c1ncn2CC(CF)OCP(=O)(O)O | IIIB TIBO R82913 STR-1 (RT L100I Y181C) |  | CEM | RT-L100I Y181C | 3 µM |
| OC[C@H]1O[C@@H](Oc2cc(O)cc3c2C[C@@H](O)[C@@H](c2ccc(O)c(O)c2)O3)[C@H](O)[C@@H](O)[C@@H]1O | IIIB |  | C8166 |  | 58.88 µg/mL |
| CC(C)=CCN1Cc2cc(Cl)cc3[nH]c(=S)n(c23)C[C@@H]1C | IIIB |  | CEM |  | 0.06 µM |
| Cc1ccc(C(=O)O[C@H]2[C@H](O)[C@H]3[C@@H](O)CCN3C[C@@H]2O)cc1 | GB8 |  | JM |  | 3.4 µg/mL |
| Cn1cnc2c(ncn2[C@@H]2O[C@H](CO[Si](C)(C)C(C)(C)C)C3(OS(=O)(=O)C=C3N)[C@H]2O[Si](C)(C)C(C)(C)C)c1=O | IIIB |  | CEM |  | 0.06 µg/mL |

9 of the rows above, restated:

SMILES,strain,conditions,cells,changes,result
Cc1cn([C@H]2C[C@H](N=[N+]=[N-])[C@@H](CO)O2)c(=O)[nH]c1=O,IIIB,,C8166,,0.007 µg/mL
COc1cc(O)ccc1O[C@@H]1O[C@H](CO)[C@@H](O)[C@H](O)[C@H]1O,IIIB,,C8166,,55.08 µg/mL
O=c1[nH]cnc2c1ncn2[C@H]1CC[C@@H](CO)O1,IIIB nevirapine-resistant (RT Y181C),,CEM,RT-Y181C,25 µM
CN1C(=O)N(Cc2ccccc2)S(=O)(=O)c2cscc21,,,CEM,RT-Y188H,>324 µM
Nc1nc(Br)nc2c1ncn2[C@H]1CC[C@@H](CO)O1,LAV,,MT-2,,10 µM
C=C1[C@H]2CCC3C(CCC4[C@@]3(C)CCC[C@@]4(C)C(=O)O)(C2)[C@@H]1OC(C)=O,MC99 (Tat/Rev defective),,1A2,,30.8 µg/mL
C=CCC1=C[C@@]2(CC=C(C)C)OCOC2=CC1=O,IIIB,,C8166,,16 µM
Cc1cn([C@@H]2O[C@H](CO[Si](C)(C)C(C)(C)C)[C@@]3(OS(=O)(=O)C=C3N)[C@H]2O[Si](C)(C)C(C)(C)C)c(=O)[nH]c1=O,IIIB,,CEM,RT-E138K,3.1 µM
NC(=O)c1nn([C@@H]2O[C@H](CO)[C@@H](O)[C@H]2O)cc1I,IIIB,,C8166,,<20 µM

Blank or dashed fields: not listed here. ECn: concentration that inhibits the pathogen or its effect by n%.